Experimental data taken from PMC11201590, “Enhancing Selective Antimicrobial and Antibiofilm Activities of Melittin through 6-Aminohexanoic Acid Substitution” (Biomolecules, 2024).

Tested on: sheep red blood cells (sRBCs)
Assay: Hemolytic activity
Format: cell-based
Conditions: 37 °C, one hour; for hemolysis: 64 µM peptide, sRBCs, 0.1% Triton X-100 = 100%; for HC10, concentration that causes 10% hemolysis of sRBC: 4% v/v sRBCs in PBS, absorbance 405 nm
Procedure: The hemolytic activity of peptides was assessed by measuring the release of hemoglobin from sheep red blood cells (sRBCs), as described previously. To create a 4% v/v erythrocyte dilution, fresh sRBCs were washed with phosphate-buffered saline (PBS), centrifuged, and then resuspended in PBS. Next, 100 μL of serially diluted peptides was added to a sterile 96-well plate, followed by the addition of 100 µL of sRBCs. The plate was then incubated at 37 °C for one hour. After incubation, the plate was centrifuged at 1000 relative centrifugal force (RCF), and the supernatant was transferred to a new 96-well plate. Hemoglobin release was measured at 405 nm using a microplate ELISA reader. A total of 0.1% Triton X-100 treatment was utilized to induce 100% hemolysis, while PBS was employed as the reference for 0% hemolysis. The percentage of hemolytic activity was determined using the formula % Hemolysis = [(Abs in peptide solution − Abs in PBS)/(Abs of 0.1% Triton X-100 − Abs of PBS)] × 100.

SMILES	hemolysis	HC10, concentration that causes 10% hemolysis of sRBC
CC[C@H](C)[C@H](NC(=O)CN)C(=O)NCC(=O)N[C@@H](C)C(=O)N[C@H](C(=O)NCCCCCC(=O)N[C@@H](CCCCN)C(=O)N[C@H](C(=O)N[C@@H](CC(C)C)C(=O)N[C@H](C(=O)N[C@H](C(=O)NCC(=O)N[C@@H](CC(C)C)C(=O)N1CCC[C@H]1C(=O)N[C@@H](C)C(=O)N[C@@H](CC(C)C)C(=O)N[C@H](C(=O)N[C@@H](CO)C(=O)N[C@@H](Cc1c[nH]c2ccccc12)C(=O)N[C@H](C(=O)N[C@@H](CCCCN)C(=O)N[C@@H](CCCNC(=N)N)C(=O)N[C@@H](CCCCN)C(=O)N[C@@H](CCCNC(=N)N)C(=O)N[C@@H](CCC(N)=O)C(=O)N[C@@H](CCC(N)=O)C(N)=O)[C@@H](C)CC)[C@@H](C)CC)[C@@H](C)O)[C@@H](C)O)C(C)C)C(C)C [Mel-LX1]	11%	64 µM
CC[C@H](C)[C@H](NC(=O)CN)C(=O)NCC(=O)N[C@@H](C)C(=O)N[C@H](C(=O)N[C@@H](CC(C)C)C(=O)N[C@@H](CCCCN)C(=O)N[C@H](C(=O)N[C@@H](CC(C)C)C(=O)N[C@H](C(=O)N[C@H](C(=O)NCC(=O)N[C@@H](CC(C)C)C(=O)N1CCC[C@H]1C(=O)N[C@@H](C)C(=O)NCCCCCC(=O)N[C@H](C(=O)N[C@@H](CO)C(=O)N[C@@H](Cc1c[nH]c2ccccc12)C(=O)N[C@H](C(=O)N[C@@H](CCCCN)C(=O)N[C@@H](CCCNC(=N)N)C(=O)N[C@@H](CCCCN)C(=O)N[C@@H](CCCNC(=N)N)C(=O)N[C@@H](CCC(N)=O)C(=O)N[C@@H](CCC(N)=O)C(N)=O)[C@@H](C)CC)[C@@H](C)CC)[C@@H](C)O)[C@@H](C)O)C(C)C)C(C)C [Mel-LX4]	3%	128 µM
CC[C@H](C)[C@H](NC(=O)CN)C(=O)NCC(=O)N[C@@H](C)C(=O)N[C@H](C(=O)N[C@@H](CC(C)C)C(=O)N[C@@H](CCCCN)C(=O)N[C@H](C(=O)N[C@@H](CC(C)C)C(=O)N[C@H](C(=O)N[C@H](C(=O)NCC(=O)NCCCCCC(=O)N1CCC[C@H]1C(=O)N[C@@H](C)C(=O)N[C@@H](CC(C)C)C(=O)N[C@H](C(=O)N[C@@H](CO)C(=O)N[C@@H](Cc1c[nH]c2ccccc12)C(=O)N[C@H](C(=O)N[C@@H](CCCCN)C(=O)N[C@@H](CCCNC(=N)N)C(=O)N[C@@H](CCCCN)C(=O)N[C@@H](CCCNC(=N)N)C(=O)N[C@@H](CCC(N)=O)C(=O)N[C@@H](CCC(N)=O)C(N)=O)[C@@H](C)CC)[C@@H](C)CC)[C@@H](C)O)[C@@H](C)O)C(C)C)C(C)C [Mel-LX3]	27%	64 µM
CC[C@H](C)[C@H](NC(=O)CN)C(=O)NCC(=O)N[C@@H](C)C(=O)N[C@H](C(=O)N[C@@H](CC(C)C)C(=O)N[C@@H](CCCCN)C(=O)N[C@H](C(=O)NCCCCCC(=O)N[C@H](C(=O)N[C@H](C(=O)NCC(=O)N[C@@H](CC(C)C)C(=O)N1CCC[C@H]1C(=O)N[C@@H](C)C(=O)N[C@@H](CC(C)C)C(=O)N[C@H](C(=O)N[C@@H](CO)C(=O)N[C@@H](Cc1c[nH]c2ccccc12)C(=O)N[C@H](C(=O)N[C@@H](CCCCN)C(=O)N[C@@H](CCCNC(=N)N)C(=O)N[C@@H](CCCCN)C(=O)N[C@@H](CCCNC(=N)N)C(=O)N[C@@H](CCC(N)=O)C(=O)N[C@@H](CCC(N)=O)C(N)=O)[C@@H](C)CC)[C@@H](C)CC)[C@@H](C)O)[C@@H](C)O)C(C)C)C(C)C [Mel-LX2]	6%	128 µM
CC[C@H](C)[C@H](NC(=O)CN)C(=O)NCC(=O)N[C@@H](C)C(=O)N[C@H](C(=O)N[C@@H](CC(C)C)C(=O)N[C@@H](CCCCN)C(=O)N[C@H](C(=O)N[C@@H](CC(C)C)C(=O)N[C@H](C(=O)N[C@H](C(=O)NCC(=O)N[C@@H](CC(C)C)C(=O)N1CCC[C@H]1C(=O)N[C@@H](C)C(=O)N[C@@H](CC(C)C)C(=O)N[C@H](C(=O)N[C@@H](CO)C(=O)N[C@@H](Cc1c[nH]c2ccccc12)C(=O)N[C@H](C(=O)N[C@@H](CCCCN)C(=O)N[C@@H](CCCNC(=N)N)C(=O)N[C@@H](CCCCN)C(=O)N[C@@H](CCCNC(=N)N)C(=O)N[C@@H](CCC(N)=O)C(=O)N[C@@H](CCC(N)=O)C(N)=O)[C@@H](C)CC)[C@@H](C)CC)[C@@H](C)O)[C@@H](C)O)C(C)C)C(C)C [Melittin]	–	2 µM
CC[C@H](C)[C@H](NC(=O)CN)C(=O)NCC(=O)N[C@@H](C)C(=O)N[C@H](C(=O)NCCCCCC(=O)N[C@@H](CCCCN)C(=O)N[C@H](C(=O)NCCCCCC(=O)N[C@H](C(=O)N[C@H](C(=O)NCC(=O)NCCCCCC(=O)N1CCC[C@H]1C(=O)N[C@@H](C)C(=O)NCCCCCC(=O)N[C@H](C(=O)N[C@@H](CO)C(=O)N[C@@H](Cc1c[nH]c2ccccc12)C(=O)N[C@H](C(=O)N[C@@H](CCCCN)C(=O)N[C@@H](CCCNC(=N)N)C(=O)N[C@@H](CCCCN)C(=O)N[C@@H](CCCNC(=N)N)C(=O)N[C@@H](CCC(N)=O)C(=O)N[C@@H](CCC(N)=O)C(N)=O)[C@@H](C)CC)[C@@H](C)CC)[C@@H](C)O)[C@@H](C)O)C(C)C)C(C)C [Mel-LX5]	2%	128 µM
